Data: PMC3642348, “Human and Viral Golgi Anti-apoptotic Proteins (GAAPs) Oligomerize via Different Mechanisms and Monomeric GAAP Inhibits Apoptosis and Modulates Calcium*^([image sbox.jpg])” (2013)

Experiments:
[1] = target: vGAAP C60S, C-terminally HA-tagged; experiment: reducing SDS-PAGE and anti-HA immunoblot, Li-COR band quantification; details: +DTT; lysates from transfected HeLa cells; parent: est. 0.020; read off a plot
[2] = target: vGAAP C60S, C-terminally HA-tagged; experiment: non-reducing SDS-PAGE and anti-HA immunoblot, Li-COR band quantification; details: -DTT; lysates from transfected HeLa cells; parent: est. 1.6; read off a plot
vGAAP-HA C190S [3] = experiment: reducing SDS-PAGE and anti-HA immunoblot, Li-COR band quantification; details: +DTT; lysates from transfected HeLa cells; parent: est. 0.020; read off a plot
vGAAP-HA C190S [4] = experiment: non-reducing SDS-PAGE and anti-HA immunoblot, Li-COR band quantification; details: -DTT; lysates from transfected HeLa cells; parent: est. 1.6; read off a plot
[5] = target: vGAAP CXS (all cysteines mutated to serines), C-terminally HA-tagged; experiment: reducing SDS-PAGE and anti-HA immunoblot, Li-COR band quantification; details: +DTT; lysates from transfected HeLa cells; parent: est. 0.020; read off a plot
[6] = target: vGAAP CXS (all cysteines mutated to serines), C-terminally HA-tagged; experiment: non-reducing SDS-PAGE and anti-HA immunoblot, Li-COR band quantification; details: -DTT; lysates from transfected HeLa cells; parent: est. 1.6; read off a plot
[7] = target: vGAAP C60S C-terminally tagged with GFP or tandem Tomato (Tom); experiment: FRET (acceptor photobleaching) in HeLa cells; details: vC60S-GFP + vC60S-Tom; cells fixed and imaged 16 h after transfection; parent: est. 0.31; read off a plot
[8] = target: vGAAP C9S/C60S C-terminally tagged with GFP or tandem Tomato (Tom); experiment: FRET (acceptor photobleaching) in HeLa cells; details: vC9+60S-GFP + vC9+60S-Tom; cells fixed and imaged 16 h after transfection; parent: est. 0.31; read off a plot
[9] = target: vGAAP C9S/C60S, C-terminally HA-tagged; experiment: reducing SDS-PAGE and anti-HA immunoblot, Li-COR band quantification; details: +DTT; lysates from transfected HeLa cells; parent: est. 0.020; read off a plot
[10] = target: vGAAP C9S/C60S, C-terminally HA-tagged; experiment: non-reducing SDS-PAGE and anti-HA immunoblot, Li-COR band quantification; details: -DTT; lysates from transfected HeLa cells; parent: est. 1.6; read off a plot
[11] = target: vGAAP C9S C-terminally tagged with GFP or tandem Tomato (Tom); experiment: FRET (acceptor photobleaching) in HeLa cells; details: vC9S-GFP + vC9S-Tom; cells fixed and imaged 16 h after transfection; parent: est. 0.31; read off a plot
vGAAP-HA C42S [12] = experiment: reducing SDS-PAGE and anti-HA immunoblot, Li-COR band quantification; details: +DTT; lysates from transfected HeLa cells; parent: est. 0.020; read off a plot
vGAAP-HA C42S [13] = experiment: non-reducing SDS-PAGE and anti-HA immunoblot, Li-COR band quantification; details: -DTT; lysates from transfected HeLa cells; parent: est. 1.6; read off a plot
vGAAP-HA C101S [14] = experiment: reducing SDS-PAGE and anti-HA immunoblot, Li-COR band quantification; details: +DTT; lysates from transfected HeLa cells; parent: est. 0.020; read off a plot
vGAAP-HA C101S [15] = experiment: non-reducing SDS-PAGE and anti-HA immunoblot, Li-COR band quantification; details: -DTT; lysates from transfected HeLa cells; parent: est. 1.6; read off a plot
[16] = target: vGAAP C9S, C-terminally HA-tagged; experiment: reducing SDS-PAGE and anti-HA immunoblot, Li-COR band quantification; details: +DTT; lysates from transfected HeLa cells; parent: est. 0.020; read off a plot
[17] = target: vGAAP C9S, C-terminally HA-tagged; experiment: non-reducing SDS-PAGE and anti-HA immunoblot, Li-COR band quantification; details: -DTT; lysates from transfected HeLa cells; parent: est. 1.6; read off a plot

## viral GAAP (vGAAP), C-terminally HA-tagged C60S
[1]
  other: Dimer/Monomer ratio: 0.012
[2]
  other: Dimer/Monomer ratio: 0.85

## viral GAAP (vGAAP), C-terminally HA-tagged C190S
vGAAP-HA C190S [3]
  other: Dimer/Monomer ratio: 0.024
vGAAP-HA C190S [4]
  other: Dimer/Monomer ratio: 1.9

## viral GAAP (vGAAP), C-terminally HA-tagged C9S; C42S; C60S; C101S; C190S
[5]
  other: Dimer/Monomer ratio: 0.01
[6]
  other: Dimer/Monomer ratio: 0.0095

## vGAAP C-terminally tagged with GFP or tandem Tomato (Tom) C60S
[7]
  other: FRET efficiency: 0.05

## vGAAP C-terminally tagged with GFP or tandem Tomato (Tom) C9S; C60S
[8]
  other: FRET efficiency: 0.073

## viral GAAP (vGAAP), C-terminally HA-tagged C9S; C60S
[9]
  other: Dimer/Monomer ratio: 0.009
[10]
  other: Dimer/Monomer ratio: 0.017

## vGAAP C-terminally tagged with GFP or tandem Tomato (Tom) C9S
[11]
  other: FRET efficiency: 0.046

## viral GAAP (vGAAP), C-terminally HA-tagged C42S
vGAAP-HA C42S [12]
  other: Dimer/Monomer ratio: 0.022
vGAAP-HA C42S [13]
  other: Dimer/Monomer ratio: 3.2

## viral GAAP (vGAAP), C-terminally HA-tagged C101S
vGAAP-HA C101S [14]
  other: Dimer/Monomer ratio: 0.029
vGAAP-HA C101S [15]
  other: Dimer/Monomer ratio: 1.4

## viral GAAP (vGAAP), C-terminally HA-tagged C9S
[16]
  other: Dimer/Monomer ratio: 0.017
[17]
  other: Dimer/Monomer ratio: 0.22
